A mixed list of measured activities; the numbers were collected in NIAID ChemDB.

Shared fields: whole-cell or culture tests; agent: Varicella zoster virus

Lines come from different laboratories, so protocols vary. An empty or dashed field is not shown. ECn is the concentration giving n% inhibition of infection, replication or growth. Percent inhibition refers to the dose given; in toxicity tests it is the harm to the cells.

compound | method | cell line | strain or isolate | measure | dose | result
CCCCCCCCc1cc2cn([C@H]3C[C@H](O)[C@@H](CO)O3)c(=O)nc2o1 | - | - | YS (TK-) | EC50 | - | >50 µM
O=c1[nH]c(=O)n([C@H]2C[C@H](O)[C@@H](CO)O2)cc1I | - | - | - | MIC | - | 45 µg/mL
CCOC(=O)/C=C\C=C\[C@H]1O[C@@H](n2ccc(=O)[nH]c2=O)[C@H](O)[C@@H]1O | - | HEL | YS | EC50 | - | 10 µM
Nc1ccn(C[C@@H](CO)OCP(=O)(O)O)c(=O)n1 | - | - | - | MIC | - | 0.2 µg/mL
Nc1ncnc2c1ncn2[C@@H]1C[C@H](CO)[C@@H](O)[C@@H]1O | cytopathic effect / ELISA | HEL | 9/84 | EC50 | - | 27 µM
Nc1nc(=O)n([C@@H]2O[C@H](CO)[C@@H](O)[C@@H]2F)cc1I | plaque count | HELF | Kawaguchi | inhibition | 0.01 µg/mL | 15%
COc1cc(OC)c(NC(=S)Nc2ccc(NC(C)=O)cc2)cc1Cl | ELISA | HFF | ELLEN | inhibition | 10 µg/mL | 2%
O=c1[nH]c(=O)n([C@H]2C[C@H](O)[C@@H](CO)O2)cc1I | plaque count | HELF | Kawaguchi | inhibition | 1 µg/mL | 100%
O=C(NCc1ccc(Cl)cc1)c1c[nH]c2ccc(C#CCO)cc2c1=O | plaque count | - | DIE | EC50 | - | 0.2 µM
CCc1cn([C@@H]2O[C@H](CO)[C@@H](O)[C@@H]2O)c(=O)[nH]c1=O | plaque count | HELF | HIRAI | inhibition | 100 µg/mL | 47%
COc1cc(OC)c(NC(=S)Nc2ccc(NC(C)=O)cc2C#N)cc1Cl | ELISA | HFF | ELLEN | inhibition | 10 µg/mL | 3%
Nc1nc2c(ncn2CCC(CO)CO)c(=O)[nH]1 | cytopathic effect | HEL | Oka penciclovir-resistant/A | EC50 | - | 12.5 µM
Cc1cn([C@@H]2O[C@H](CO)[C@@H](O)[C@@H]2F)c(=O)nc1N | plaque count | HELF | Kawaguchi | inhibition | 0.001 µg/mL | 0%
COc1cc(NC(=O)c2ccccc2F)ccc1NC(=S)NC1=CC(Cl)C(C)(OC)C=C1 | ELISA | HFF | ELLEN | inhibition | 10 µg/mL | 10%
Nc1ncnc2c1ncn2C[C@@H](CO)OCP(=O)(O)O | - | - | - | MIC | - | 0.02 µg/mL
Cn1cc(C(=O)NCc2ccc(Cl)cc2)c(=O)c2cc(CN3CCOCC3)ccc21 | plaque count | HFF | DY varicella isolate | inhibition | 4.1 µM | 90%
CC(NC(=S)Nc1ccc(NC(=O)c2ccccc2F)cc1)c1ccc(F)cc1 | ELISA | HFF | SC44 | EC50 | - | 0.32 µg/mL

The last 2 rows once more:

compound,method,cell line,strain or isolate,measure,dose,result
Cn1cc(C(=O)NCc2ccc(Cl)cc2)c(=O)c2cc(CN3CCOCC3)ccc21,plaque count,HFF,DY varicella isolate,inhibition,4.1 µM,90%
CC(NC(=S)Nc1ccc(NC(=O)c2ccccc2F)cc1)c1ccc(F)cc1,ELISA,HFF,SC44,EC50,-,0.32 µg/mL